# Source: the supplement of paper PMC12637763
# Some of the results follow. Env chains of viruses from a treatment-interruption trial, translated from the printed DNA. IC50 / IC80 of two broadly neutralizing antibodies; lower = more sensitive virus; >50 µg/ml means not reached and <0.001 µg/ml is below the lowest dose. No active / inactive call.
# B1: HIV-1 Env, rebound clone, placebo arm (protein)
# chain: MRAKGTRKNCQHLWKWGTMLLGMLMICSAAGNLWVTVYYGVPVWKAANTTLFCASDAKAYDTEVHNVWATHACVPTDPNPQEVPLENVTENFNMWKNNMAEQMHEDIISLWDQSLKPCVKLTPLCVTLNCTDYTKNATNQNNTSGNETVGKEIEMKNCSFNITTDMRDKFQKEYALFYKDDIVSIDNNVSYRLISCNTSVLTQACPKISFEPIPIHYCAPAGFAILKCNDKKFNGTGPCKNVSTVQCTHGIRPVVSTQLLLNGSLAEGDIVIRSENITNNAKTIIVQLNETVEINCTRPNNNTRKSIHIGPGRAFYATGDIIGDIRQAHCNISGTKWNNTLKKIVGQLRAQFGTQFKNKTITFNHSSGGDPEIVMHMFNCGGEFFYCNTTQLFNSTWPANGSIAENSTNNGTITLPCRIKQIVNMWQEVGKAMYAPPIKGQIKCTSNITGLILTRDGGTETNTTTEIFRPGGGNMMDNWRSELYKYKVVKIEPLGVAPTKAKRRVVQREKRAVTFGALFLGFLGAAGSTMGAASMTLTVQARLLLSGIVQQQNNLLRAIEAQQHMLQLTVWGIKQLQARVLAVERYLKDQQLLGIWGCSGKLICTTAVPWNASWSNKTQDEIWGNMTWMQWEKEISNYTGLIYNLIEKSQTQQEQNEQELLALDQWASLWNWFDISKWLWYIKIFIMIVGGLIGLRIVFTVLNIVNRVRQGYSPLSFQTLLPNPRGPDRPGGIEEEGGERDRDSSSRLADGFLAIFWVDLRSLFLFSYHHLRDLLLIAARIVELLGRRGWELLKYWWNLLRYWSQELKNSAISLLNATAIAVAEGTDRVIEVLQRIWRGILHIPTRIRQGLERLLL
# B2: HIV-1 Env, rebound clone, placebo arm (protein)
# chain: MRAKGTRKNCQHLWKWGTMLLGMLMICSAAGNLWVTVYYGVPVWKAANTTLFCASDAKAYDTEVHNVWATHACVPTDPNPQEVPLENVTENFNMWKNNMAEQMHEDIISLWDQSLKPCVKLTPLCVTLNCTDYTKNATNQNNTSGNETVGKEIEMKNCSFNITTDMRDKFQKEYALFYKDDIVSIDNNVSYRLISCNTSVLTQACPKISFEPIPIHYCAPAGFAILKCNDKKFNGTGPCKNVSTVQCTHGIRPVVSTQLLLNGSLAEGGIVIRSENITNNAKTIIVQLNETVEINCTRPNNNTRKSIHIGPGRAFYATGDIIGDIRQAHCNISGTKWNNTLKKIVGQLRAQFGTQFKNKTITFNHSSGGDPEIVMHMFNCGGEFFYCNTTQLFNSTWPANGSMAENSTNNGTITLPCRIKQIVNMWQEVGKAMYAPPIKGQIKCTSNITGLILTRDGGTETNTTTEIFRPGGGNMMDNWRSELYKYKVVKIEPLGVAPTKAKRRVVQREKRAVTFGALFLGFLGAAGSTMGAASMTLTVQARLLLSGIVQQQNNLLRAIEAQQHMLQLTVWGIKQLQARVLAVERYLKDQQLLGIWGCSGKLICTTAVPWNASWSNKTQDEIWGNMTWMQWEKEISNYTGLIYNLIEKSQTQQEQNEQELLALDQWASLWNWFDISKWLWYIKIFIMIVGGLIGLRIVFTVLNIVNRVRQGYSPLSFQTLLPNPRGPDRPGGIEEEGGERDRDSSSRLADGFLAIFWVDLRSLFLFSYHHLRNLLLIAARIVELLGRRGWELLKYWWNLLRYWSQELKNSAISLLNATAIAVAEGTDRVIEVLQRIWRGILHIPTRIRQGLERLLL
# B3: HIV-1 Env, rebound clone, antibody arm (protein)
# chain: MRVKGIRRNYQHLWKWGIMLLGMLMICSAVDNLWVTVYYGVPVWKEATTTLFCASDAKSYDTEAHNVWATHACVPTDPNPQEVKLENVTENFNMWKNNMVEQMHEDIISLWDQSLKPCVRLTPLCVTLNCNDVNSTRTVNTTMNSTTMSSEVDKGEIKNCSFNITTGMGIKNEKEYALFYKLDVVQIDNTSYRLISCNTSVVTQACPKISFEPIPIHYCAPAGFAILKCNDKKFNGTGPCKNVSTVQCTHGIRPVISTQLLLNGSLAEEEVIIRSENITDNAKTIIVQLNETVKINCTRPHNNTRKGIHMGPGKAFFTTGNVIGDIRQAHCNISGAEWKNTLKMVAKKLGDQFKNKTITFSASSGGDPEIEKHTFNCGGEFFYCDTTKLFNSTWNETTWNENRENENDTDITIQCRIKQIINMWQEVGKAIYAPPIEGHIRCSSNITGLLLTRDGGINNNQSNTTEVFRPQGGDMKNNWRSELYKYKVVKIEPLGVAPTKAKRRVVQREKRAIVGLGAVFVGFLGAAGSTMGAASLTLTVQARQLLSGIVQQQSNLLRAIEAQQHLLQLTVWGIKQLQARILAVERYLTDQQLLGIWGCSGKLICNTAVPWNASWSNKSLDTIWENMTWMEWDREISNYTSLIYSLIEESQNQQEKNEQELLALDKWANLWSWFNISNWLWYIRIFIMIVGGLIGLRIVFAVLSIVNRVRQGYSPLSFQTHLPAQRGPDRPAGIGEEGGERDKDTSTPLVAGFLAILWVDLRSLCLFSYHRLRDLLLIVARIVELLGRRGWEILKYWWTLLQYWSQELKTSAVSLLNTTAIAVAEGTDRVIEAVQRACRAILHIPRRIRQGAERILV
# B4: HIV-1 Env, rebound clone, placebo arm (protein)
# chain: MRAKGTKKSWQNLWWRWGTMLLGMLMICNAVEQLWVTVYYGVPVWKEANTTLFCASDAKAYDTEVHNVWATHACVPTDPNPQEVFLENVTENFNMWKNNMVEQMHEDIISLWDQSLKPCVKLTPLCVTLNCTDLNCTSISNSSSTSNSSAKCNISNSEGEEEIKNIKNCTFNVTTSIKDKIQKEYALFYRLDIVPIDGSNDSYRLISCNTSVITQACPKVNFEPIPIHYCTPAGFAILKCNDKKFNGTGPCKNVSTVQCTHGIRPVVSTQLLLNGSLAEEEVVIRSENFTDNAKTIIVQLNESVEINCTRPSNNTRKSITIGPGRAFYATGEIIGDIRQAHCNISKAKWGNSLELVVSKLREHENKTIIFKQSSGGDPEIVMHSFICGGEFFYCNTTQLFNSTWTLNDTNFENSTNGNETITLPCRIKQIINMWQEVGKAMYAPPIRGQIRCSSNITGLLLARDGGSNNTNNETFRPEGGNMRDNWRSELYKYKVVRIEPLGVAPTRARRRVVQREKRAVGAIGAMFLGFLGAAGSTMGAASITLTVQARLLLSGIVQQQNNLLRAIEAQQHLLQLTVWGIKQLQARVLAVERYLKDQQLLGIWGCSGRLICTTNVPWNNSWSNKNYSQIWDNMTWMEWEREIDNYTGLIYTLIEQSQNQQEKNEQELLELDKWASLWNWFSITNWLWYIRIFIMIVGGLIGLRIVFAIFSLVNRVRQGYSPLSFQTRLPTQRGPDRPEETEEEGGEQGKDRSIRLVDGFLALIWDDLRSLCLFSYHRLRDLLLIAARTVEILGRGGWELLKYWKNLLQYWSQELKKSAIDLYNTIAIAVAEGTDRVIEAIQRICRAILHIPRRIRQGLERGLL
# B5: HIV-1 Env, rebound clone, placebo arm (protein)
# chain: MRAKGTKKSWQNLWWRWGTMLLGMLMICNAVEQLWVTVYYGVPVWKEANTTLFCASDAKAYDTEVHNVWATHACVPTDPNPQEVFLENVTENFNMWKNNMVEQMHEDIISLWDQSLKPCVKLTPLCVTLNCTDLNCTSISNSSSTSNSSAKCNISNSEGEEEIKNIKNCTFNVTTSIKDKIQKEYALFYRLDIVPIDGSNDSYRLISCNTSVITQACPKVNFEPIPIHYCTPAGFAILKCNDKKFNGTGPCKNVSTVQCTHGIRPVVSTQLLLNGSLAEEEVVIRSENFTDNAKTIIVQLNESVEINCTRPSNNTRKSITIGPGRAFYATGEIIGDIRQAHCNISKAKWRNSLKLVVSKLREHENKTIIFKQSSGGDPEIVMHSFICGGEFFYCNTTQLFNSTWTLNDTNFENSTNGNETIALPCRIKQIINMWQEVGKAMYAPPIRGQIRCSSNITGLLLARDGGSNNTNNETFRPEGGNMRDNWRSELYKYKVVRIEPLGVAPTRARRRVVQREKRAVGAIGAMFLGFLGAAGSTMGAASITLTVQARLLLSGIVQQQNNLLRAIEAQQHLLQLTVWGIKQLQARVLAVERYLKDQQLLGIWGCSGRLICTTNVPWNNSWSNKNYSQIWDNMTWMEWEREIDNYTGLIYTLIEQSQNQQEKNEQELLELDKWASLWNWFSITNWLWYIRIFIMIVGGLIGLRIVFAIFSLVNRVRQGYSPLSFQTRLPTQRGPDRPEETEEEGGEQGKDRSIRLVDGFLALIWDDLRSLCLFSYHRLRDLLLIAARTVEILGRGGWELLKYWKNLLQYWSQELKKSAIDLYNTIAIAVAEGTDRVIEAIQRICRAILHIPRRIRQGLERGLL
# B6: HIV-1 Env, rebound clone, placebo arm (protein)
# chain: MRAKGTKKSWQNLWWRWGTMLLGMLMICNAVEQLWVTVYYGVPVWKEANTTLFCASDAKAYDTEVHNVWATHACVPTDPNPQEVFLENVTENFNMWKNNMVEQMHEDIISLWDQSLKPCVKLTPLCVTLNCTDLNCTSISNSSSTSNSSAKCNISNSEGEEEIKNIKNCTFNVTTSIKDKIQKEYALFYRLDIVPIDGSNDSYRLISCNTSVITQACPKVNFEPIPIHYCTPAGFAILKCNDKKFNGTGPCKNVSTVQCTHGIRPVVSTQLLLNGSLAEEEVVIRSENFTDNAKTIIVQLNESVEINCTRPSNNTRKSITIGPGRAFYATGEIIGDIRQAHCNISKAKWRNSLKLVVSKLREHENKTIIFKQSSGGDPEIVMHSFICGGEFFYCNTTQLFNSTWTLNDTNFENSTNGNETITLPCRIKQIINMWQEVGKAMYAPPIRGQIRCSSNITGLLLARDGGSNNTNNETFRPEGGNMRDNWRSELYKYKVVRIEPLGVAPTRARRRVVQREKRAVGAIGAMFLGFLGAAGSTMGAASITLTVQARLLLSGIVQQQNNLLRAIEAQQHLLQLTVWGIKQLQARVLAVERYLKDQQLLGIWGCSGRLICTTNVPWNNSWSNKNYSQIWDNMTWMEWEREIDNYTGLIYTLIEQSQNQQEKNEQELLELDKWASLWNWFSITNWLWYIRIFIMIVGGLIGLRIVFAIFSLVNRVRQGYSPLSFQTRLPTQRGPDRPEETEEEGGEQGKDRSIRLVDGFLALIWDDLRSLCLFSYHRLRDLLLIAARTVEILGRGGWELLKYWKNLLQYWSQELKKSAIDLYNTIAIAVAEGTDRVIEAIQRICRAILHIPRRIRQGLERGLL
# Biological target: antibody 10-1074
# Assay: neutralization IC50; higher = virus less sensitive to the antibody
# Experimental: (§1)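 Pseudovirus bearing the Env chain mixed with antibody, from 50 µg/ml in fivefold dilutions, on TZM-bl reporter cells, in duplicate.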
row,Binder,neutralization IC50
1,B1,0.011 µg/mL
2,B2,0.015 µg/mL
3,B3,0.434 µg/mL
4,B4,0.059 µg/mL
5,B5,0.043 µg/mL
6,B6,0.066 µg/mL

# Biological target: antibody 3BNC117
# Assay: as above
# Experimental: as §1
row,Binder,neutralization IC50
1,B1,0.017 µg/mL
2,B2,0.022 µg/mL
3,B3,1.03 µg/mL
4,B4,0.181 µg/mL
5,B5,0.131 µg/mL
6,B6,0.233 µg/mL

# Biological target: antibody 10-1074
# Assay: neutralization IC80; higher = virus less sensitive to the antibody
# Experimental: as §1
row,Binder,neutralization IC80
1,B1,0.032 µg/mL
2,B2,0.047 µg/mL
3,B3,0.822 µg/mL
4,B4,0.347 µg/mL
5,B5,0.234 µg/mL
6,B6,0.264 µg/mL

# Biological target: antibody 3BNC117
# Assay: as above
# Experimental: as §1
row,Binder,neutralization IC80
1,B1,0.046 µg/mL
2,B2,0.067 µg/mL
3,B3,0.154 µg/mL
4,B4,1.08 µg/mL
5,B5,1.74 µg/mL
6,B6,1.39 µg/mL
